{"source": "paper PMC3694859", "biological_target": "MBP-KguR-His6 (MBP-C5040-His6) (Escherichia coli CFT073 (UPEC)) (UniProt A0A0H2VD08)", "assay": "EMSA", "settings": "recombinant protein; residues 1-452; protein details: N-terminal MBP (pMAL-c2x), C-terminal His6; probe letters rebuilt from the primers and the genome"}
{"sequence": "TTAATCAGCGCGGCATGTTCAGTTATACCGGTTTAAGAACCGCTCAGGTTGACCGACTACGTGAAGAATTTGGTGTCTATCTCATCGCCAGCGGTCGCATGTGTGTCGCCGGGCTTAACGCGCAAAATGTGCATCGCGTGGCAAAGGCGTTTGCTGCGGTGATGTGATTTTAATCAACAGGCGGATCTCTCCGCCTGTTCCTGACTCCAGCCATCCCCTACTATTCTGTCCCTTTTTTCGCCCACTTTTACATCATCTCTTTTCTATAAGTTTTTGAAAATTAGTGTTTTTAACTGTTGGTACGG (double strand) [c5032 promoter]", "values": [{"measurement": "binding result", "result": "binds"}]}
